Only a part is listed here, and it is no random draw. Calls of active or inactive are those of the source.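 The calls were made as follows: active = inhibition above the mean of all tested compounds plus 3 SD, set per screening campaign (cut at about 45% in these data); inactive = the rest.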
System: HCV core protein (residues 1-106) dimerization
Assay: blockers of core106 self-association – biochemical, TR-FRET, high-throughput, primary screen (AID 1899)
Details: TR-FRET GST/Flag-core106 dimerization, 1536-well; at 5 µM; stronger effect = higher value
How it was run: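 Material: GST/Flag-tagged HCV core106 proteins. Incubation: 4 h, 22.5 °C incubation. Read-out basis: inhibition (%) from 671 over 617 nm ratio. Measured by: TR-FRET, excitation 340 nm, emission 617 and 671 nm.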

Row | SMILES | inhibition
1 | CC(C)(C)C(=O)NC(Sc1ncccn1)C(Cl)(Cl)Cl (stereo not drawn) | inactive: -1.17%
2 | Clc1n[nH]nc1-c1nn[nH][15n]1 | inactive: -2.52%
3 | CCOP(=O)(Nc1ccc(C)cn1)OCC | inactive: -15.9%
4 | CN(CCCl)Cc1cc(Cl)c(NC2=NCCN2)c(Cl)c1 | inactive: 5.42%
5 | CCOP(=O)(NC(=NC(C)c1ccccc1)NC(C)c1ccccc1)OCC (stereo not drawn) | inactive: -4.57%
6 | CCC1=CC2Cc3nc4ccc(Cl)cc4c(N)c3C(C1)C2 (stereo not drawn) | inactive: 2.78%
7 | O=P1(Nc2ccccn2)COc2ccccc2OC1 | inactive: -3.03%
8 | Cc1ccc(OCC(=O)OC2CN3CCC2CC3)cc1 (stereo not drawn) | inactive: -9.84%
9 | O=[As](O)(c1cccs1)c1cccs1 | inactive: -8.99%
10 | O=P1(Nc2ccc(Br)cn2)COc2ccccc2OC1 | inactive: -4.6%
11 | Nc1cccc([As](=O)(O)c2ccccc2)c1 | inactive: -5.06%
12 | O=P1(Nc2ncccn2)COc2ccccc2OC1 | inactive: -1.91%
13 | O=C(/C=C/c1ccccc1)OC1CN2CCC1CC2 (stereo not drawn) | inactive: 3.06%
14 | CN(C)C1(CNC(=O)c2ccc(S(C)(=O)=O)cc2)CCCCC1 | inactive: 2.12%
15 | Cc1ccc(C(=O)OC2CN3CCC2CC3)cc1 (stereo not drawn) | inactive: 2.47%
16 | CC1CCC(C(C)C)C(OP(=O)(Nc2ccccn2)c2ccccc2)C1 (stereo not drawn) | inactive: 1.79%
17 | Cc1nn(-c2ccccc2)c2c1P(=O)(N1CCOCC1)N(C)C(c1ccccc1)=N2 (stereo not drawn) | inactive: -0.09%
18 | C(Cc1nn[nH]n1)Cc1nn[nH]n1 | inactive: -0.77%
19 | Nc1ccc([As](=O)(O)c2ccc([N+](=O)[O-])cc2)cc1 | inactive: 0.97%
20 | O=C(OC1CN2CCC1CC2)c1cccc(Cl)c1 (stereo not drawn) | inactive: 1.64%
21 | CC(=O)NC(SC(=S)N(C)C)C(Cl)(Cl)Cl (stereo not drawn) | inactive: -1.03%
22 | O=[N+]([O-])c1ncn(CCn2cnc([N+](=O)[O-])n2)n1 | inactive: -1.92%

Row | SMILES | inhibition
23 | O=[N+]([O-])c1ccc(O)c(/C=N/Nc2ccc([N+](=O)[O-])cc2[N+](=O)[O-])c1 | inactive: -8.56%
24 | O=[As](O)(c1ccccc1)c1ccc(O)cc1 | inactive: 0.87%
25 | C[C@H]1OP(=O)(Oc2ccccc2)[C@H](O)[C@H](O)[C@H]1N=[N+]=[N-] (stereo partly drawn) | inactive: -2.06%
26 | O=P(Nc1nc2ccccc2s1)(c1ccccc1)c1ccccc1 | inactive: -0.63%
27 | CN(C)C1(CNC(=O)c2ccc(Cl)c(S(N)(=O)=O)c2)CCCCC1 | inactive: 2.68%
28 | O=P(Nc1ccccn1)(c1ccc(Br)cc1)c1ccc(Br)cc1 | inactive: 1.99%
29 | c1nnnn1CCn1cnnn1 | inactive: -9.05%
30 | O=P(Nc1nccs1)(c1ccccc1)c1ccccc1 | inactive: -2.83%
31 | CC(C)C(=O)NC(Sc1ccccc1)C(Cl)(Cl)Cl (stereo not drawn) | inactive: -6.87%
32 | CC(=O)Nc1ccc(Oc2c([N+](=O)[O-])cc([N+](=O)[O-])cc2[N+](=O)[O-])cc1 | inactive: 1.96%
33 | CC(=O)Nc1ccc([As](=O)(O)O)c(O)c1 | inactive: -2.22%
34 | CC(=O)c1ccc(N2CC2c2ccncc2)cc1 (stereo not drawn) | inactive: -0.38%
35 | C[C@H]1OP(=O)(Oc2ccccc2)C[C@@H]2O[C@@H]21 (stereo partly drawn) | inactive: 2.88%
36 | C[C@@H]1C=CCP(=O)(Oc2ccccc2)O1 (stereo partly drawn) | inactive: -8.33%
37 | CC(C)(C)C(=O)NC(Sc1ccccc1)C(Cl)(Cl)Cl (stereo not drawn) | inactive: 2.69%
38 | CCOc1ccc(C2=NCC(CBr)S2)cc1 (stereo not drawn) | inactive: 1.04%
39 | O=P1(Nc2nc3ccc(Cl)cc3s2)COc2ccccc2O1 (stereo not drawn) | inactive: -2.02%
40 | CN(C)C(=O)Oc1noc2ccccc12 | inactive: -2.25%
41 | Cc1ccccc1OP(=O)(Nc1ccccn1)Oc1ccccc1C | inactive: 8.22%
42 | CC(=O)NC(SC(=S)N(CC(C)C)CC(C)C)C(Cl)(Cl)Cl (stereo not drawn) | inactive: -0.64%
43 | Cc1ccc(OP(=O)(Nc2ccccn2)Oc2ccc(C)cc2)cc1 | inactive: 4.92%
44 | COC(=O)c1cc2c(s1)N=C(c1ccccc1)N(C)P2(=O)N1CCOCC1 (stereo not drawn) | inactive: -5.73%

Row | SMILES | inhibition
45 | CCC(=O)N1C2C3N(C(=O)CC)C1C1N(C(=O)CC)C(C(N1C(=O)CC)N3C(=O)CC)N2C(=O)CC | inactive: -4.41%
46 | O=C(OC1CN2CCC1CC2)c1ccccc1 (stereo not drawn) | inactive: -2.77%
47 | O=C(NC1CCS(=O)(=O)C1)NP(=S)(Oc1ccccc1)Oc1ccccc1 (stereo not drawn) | inactive: -1.23%
48 | CCNC(=S)/N=C(\N)N[N+](=O)[O-] | inactive: -1.15%
49 | Cc1ccc(NP(=O)(Oc2cccc(C)c2)Oc2cccc(C)c2)nc1 | inactive: 1.97%
50 | CCOC(=O)NC(Sc1ccccc1)C(Cl)(Cl)Cl (stereo not drawn) | inactive: -1.81%
51 | c1ccc(-c2nn[nH]n2)c(-c2nn[nH]n2)c1 | inactive: -4.39%
52 | CCN(N=Nc1nonc1N)c1nonc1N | inactive: -1.89%
53 | O=[N+]([O-])c1cc([N+](=O)[O-])c(CCN2CCOCC2)c([N+](=O)[O-])c1 | inactive: 34.1%
54 | CN(C(=O)Cc1ccc(Cl)c(Cl)c1)[C@H]1CCCC[C@@H]1N1CCCC1 | inactive: 2.64%
55 | Cc1ccc(NP(=O)(Oc2ccccc2F)Oc2ccccc2F)nc1 | inactive: -1.03%
56 | Cc1cc(SC(NC(=O)c2ccc(F)cc2)C(Cl)(Cl)Cl)ncn1 (stereo not drawn) | inactive: -3.19%
57 | CCOP(=O)(Nc1ccccc1)OCC | inactive: 4.61%
58 | CC(=O)Nc1ccc([As](=O)(O)O)cc1 | inactive: -3.41%
59 | O=C(O)c1ccccc1[As](=O)(O)O | inactive: 11.6%
60 | O=P(Nc1nc2ccc(Cl)cc2s1)(c1ccccc1)c1ccccc1 | inactive: 7.47%
61 | Nc1cc(N)c2nonc2c1[N+](=O)[O-] | inactive: -3.52%
62 | CC(C)CC(=O)NC(Sc1ccc(Cl)cc1)C(Cl)(Cl)Cl (stereo not drawn) | inactive: 2.76%
63 | O=C(NC(Sc1ccncn1)C(Cl)(Cl)Cl)c1ccccc1 (stereo not drawn) | inactive: 1.91%
64 | Cc1c2non([O-])c-2c(C)[n+](=O)[n+]1[O-] | inactive: -3.26%
65 | Oc1ccccc1CNc1ccccn1 | inactive: 4.16%
66 | Cc1ccc(OP(=O)(Nc2nccs2)Oc2ccc(C)cc2)cc1 | inactive: 4.13%

Row | SMILES | inhibition
67 | COc1ccccc1OP(=O)(Nc1ccc(C)cn1)Oc1ccccc1OC | inactive: 1.03%
68 | CN1CCCC(OC(=O)C(c2ccccc2)c2ccccc2)C1 (stereo not drawn) | inactive: -5.74%
69 | Clc1ccc(Cl)c(NC2=NCC(CBr)S2)c1 (stereo not drawn) | inactive: -2.21%
70 | NC(=O)c1cc([N+](=O)[O-])cc([N+](=O)[O-])c1N | inactive: -0.89%
71 | Cc1ccc(N/C(=N/P(=O)(N2CCOCC2)N2CCOCC2)N2CCOCC2)cc1 | inactive: -2.28%
72 | CN(C(=O)Cc1ccc(Cl)c(Cl)c1)[C@H]1CCCC[C@H]1N1CCCC1 | inactive: -9.38%
73 | CN(C)C(=O)OCCc1n(C)cc[n+]1C | inactive: 0.41%
74 | CC(C)=N/N=C(\N)N[N+](=O)[O-] | inactive: -3.11%
75 | CC1CCN(C(=O)Oc2c(Cl)cc(Cl)c3cccnc23)CC1 | inactive: 2.39%
76 | C[N+]1=C2C=CC=CC=C2SC12C([N+](=O)[O-])=CC([N+](=O)[O-])=C[C-]2[N+](=O)[O-] (stereo not drawn) | active: 54.2%
77 | Nc1ccc([As](=O)(O)c2ccc(N)cc2)cc1 | inactive: -1.87%
78 | CCN(/C(=N/P(=O)(N1CCOCC1)N1CCOCC1)N1CCOCC1)c1ccc(OC)cc1 | inactive: -5.66%
79 | CC(=O)N1C2C3N(C(C)=O)C1C1N(C(C)=O)C(C(N1C(C)=O)N3C(C)=O)N2C(C)=O | inactive: 1.51%
80 | O=[N+]([O-])c1cccc2n[nH]nc12 | inactive: -6.87%
81 | O=[N+]([O-])c1cc([N+](=O)[O-])c(CCNc2ccccc2)c([N+](=O)[O-])c1 | active: 46.2%
82 | CCc1nc2c(n1)c1c(non1O)c1c2no[n+]1[O-] | inactive: -5.52%
83 | Cc1ccc(NP(=O)(Oc2ccccc2)Oc2ccccc2)nc1 | inactive: 0.04%
84 | COc1ccc(C2=NCC(CBr)S2)cc1 (stereo not drawn) | inactive: -1.74%
85 | O=[N+]([O-])c1cccc(NC2=NCC(CBr)S2)c1 (stereo not drawn) | inactive: 1.76%
86 | CC(C)(C)C(=O)NC(Sc1ccncn1)C(Cl)(Cl)Cl (stereo not drawn) | inactive: -2.97%
87 | O=[N+]([O-])c1ncn(CCn2ncnc2[N+](=O)[O-])n1 | inactive: 3.97%
88 | O=C(Nc1cc([As](=O)(O)O)ccc1O)c1ccccc1 | inactive: -6.53%

From PubChem BioAssay AID1899 (The Scripps Research Institute Molecular Screening Center, 2009)
